Anti-infective test results gathered from many reports (values: NIAID ChemDB through PubChem).

Common to all: whole-cell or culture tests; organism: Herpes simplex virus 1; read by: plaque count; measure: EC50

ECn is the concentration giving n% inhibition of infection, replication or growth.

{"structure": "C/C=C/c1cn([C@H]2C[C@H](O)[C@@H](CO)O2)c(=O)[nH]c1=O", "cells": "HELA BU", "strain": "KOS", "value": "<10 µM"}
{"structure": "Nc1nc2c(ncn2CC[C@@H](O)CO)c(=O)[nH]1", "cells": "VERO", "strain": "C42", "value": "2 µM"}
{"structure": "Cn1cc(C(=O)NCc2ccc(Cl)cc2)c(=O)c2cc(CN3CCOCC3)ccc21", "cells": "HFF", "strain": "PAA/R acyclovir-resistant", "value": "0.6 µM"}
{"structure": "O=c1[nH]c(=S)n([C@H]2C[C@H](O)[C@@H](CO)O2)cc1Br", "cells": "RPMI8226", "strain": "KOS", "value": "16.2 µM"}
{"structure": "Nc1nc2c(ncn2CCC(CO)CO)c(=O)[nH]1", "cells": "VERO", "strain": "C1 (101)", "value": "1.1 µg/mL"}
{"structure": "Nc1nc(=S)n([C@@H]2O[C@H](CO)[C@@H](O)[C@@H]2O)cc1Cl", "cells": "MRC-5", "strain": "TK-", "value": ">341 µM"}
{"structure": "CCc1cn([C@@H]2O[C@H](CO)[C@@H](O)[C@@H]2F)c(=O)[nH]c1=O", "cells": "VERO", "strain": "F", "value": "0.024 µM"}
{"structure": "Nc1ccn([C@@H]2O[C@H](CO)[C@@H](O)[C@H]2O)c(=S)n1", "cells": "RPMI8226", "strain": "KOS", "value": ">386 µM"}
{"structure": "COC(=O)[C@H](C)NP(=O)(OC[C@H]1C/C1=C/n1cnc2c(N)nc(N)nc21)Oc1ccccc1", "cells": "HFF", "value": "5.5 µM"}
{"structure": "Cc1cn([C@H]2C[C@H](O)[C@@H](CO)O2)c(=S)[nH]c1=O", "cells": "MRC-5", "strain": "TK-", "value": ">388 µM"}
{"structure": "Nc1nc2c(ncn2COCCO)c(=O)[nH]1", "cells": "WI-38", "strain": "KOS", "value": "0.4–0.8 µM"}
{"structure": "Cc1nc(N(C)C(=O)Cc2ccc(-c3ccccn3)cc2)sc1S(N)(=O)=O", "cells": "VERO", "strain": "KD1", "value": "0.03 µM"}
{"structure": "Nc1nc2c(ncn2COCCO)c(=O)[nH]1", "cells": "VERO", "value": "1.9 µg/mL"}
{"structure": "O=C(NC1CC1)c1cc2c(s1)-c1ccccc1N(C(=O)c1ccc(NC(=O)c3ccccc3-c3ccccc3)cc1)CC2", "cells": "HeLa", "strain": "KOS", "value": ">100 µM"}
{"structure": "Nc1ncnc2nc(-c3cscn3)[nH]c12", "cells": "VERO", "value": ">100 µg/mL"}
{"structure": "CC(C)C[C@H](NC(=O)[C@@H]1O[C@H]1C(=O)O)C(=O)NCCCCN=C(N)N", "cells": "CV-1", "strain": "Fukuda", "value": "20–40 µM"}
{"structure": "Nc1nc2c(ncn2C[C@]2(CO)C[C@H]2CO)c(=O)[nH]1", "strain": "KOS", "value": "0.023 µg/mL"}
{"structure": "Nc1nc2c(ncn2[C@@H]2C[C@H](CO)[C@H]2CO)c(=O)[nH]1", "cells": "WI-38", "strain": "Schooler", "value": "0.08–0.2 µM"}
{"structure": "Nc1ncnc2c1ncn2C=C1CC1CO", "cells": "HFF", "value": "140 µM"}
{"structure": "Nc1nc2c(ncn2COCCO)c(=O)[nH]1", "cells": "HEL", "strain": "C42", "value": "0.1 µM"}
{"structure": "CC(C)Oc1ccccc1NC(=O)Nc1ccc2cnccc2n1", "value": ">100 µg/mL"}
{"structure": "NC1=NC2C(C=CN2CC(CO)CCO)C(=O)N1", "cells": "VERO", "strain": "F", "value": "0.08 µM"}
{"structure": "C[C@H](CCCC(C)(C)C)C1CCC2C3C[C@H](COS(=O)(=O)O)C4C[C@H](OS(=O)(=O)O)[C@@H](OS(=O)(=O)O)C[C@]4(C)C3CC[C@@]21C.[Na+].[Na+].[Na+]", "cells": "VERO", "strain": "KOS", "value": "6.09 µg/mL"}
{"structure": "O=c1[nH]c(=S)n([C@H]2C[C@H](O)[C@@H](CO)O2)cc1Cl", "cells": "MRC-5", "strain": "TK-", "value": ">360 µM"}
{"structure": "Nc1nc2c(ncn2COC(CO)CO)c(=O)[nH]1", "value": "0.0007 µM"}
{"structure": "Nc1nc(=S)n([C@H]2C[C@H](O)[C@@H](CO)O2)cc1Br", "cells": "RPMI8226", "strain": "KOS", "value": "2.49 µM"}
{"structure": "CC(C)(C)NC(=O)CN(C(=O)[C@H]1CC[C@@]2(C)C3CC=C4C[C@@H](O)CC[C@]4(C)C3CC[C@]12C)c1ccc(F)cc1", "cells": "Vero cells", "strain": "KOS", "value": "12 µM"}
{"structure": "Nc1nc2c(ncn2CCC(CO)CO)c(=O)[nH]1", "cells": "3T6", "strain": "511", "value": "0.08 µg/mL"}
{"structure": "Nc1nc2c(ncn2CCC(O)CO)c(=O)[nH]1", "cells": "VERO", "strain": "C915 TK-", "value": ">200 µM"}
{"structure": "Nc1nc2c(ncn2COCCO)c(=O)[nH]1", "cells": "CV-1", "strain": "Fukuda", "value": "<2.5 µM"}
{"structure": "O=C(NCc1ccc(Cl)cc1)c1cn2c3c(cc(CN4CCOCC4)cc3c1=O)OC(c1cccnc1)C2", "cells": "HFF", "strain": "L6010381", "value": "5.6 µM"}
{"structure": "Nc1nc(=S)n([C@@H]2O[C@H](CO)[C@@H](O)[C@@H]2O)cc1Br", "cells": "MRC-5", "strain": "TK-", "value": "29 µM"}
{"structure": "C=Cc1c(C)c2cc3nc(c(CC(=O)O)c4nc(cc5[nH]c(cc1[nH]2)c(C)c5CC)C(C)=C4C(=O)O)[C@@H](CCC(=O)O)[C@@H]3C", "strain": "KOS", "value": "20.93 µM"}
{"structure": "O=c1[nH]c(=O)n([C@H]2C[C@H](O)[C@@H](CO)O2)cc1/C=C/Br", "cells": "HELA BU", "strain": "KOS", "value": "<10 µM"}
{"structure": "[O-][n+]1onc2ncnc(N3CC[N+]4(CC3)CC[N+]3(CCN(c5ncnc6no[n+]([O-])c56)CC3)CC4)c21", "cells": "GMK", "strain": "K1R", "value": "8.4 µM"}
{"structure": "COC(=O)[C@H]1[C@@H]2C[C@@H](O[C@@H]3O[C@H](C)[C@@H](O)[C@H](N)[C@@H]3O)/C=C/C=C/C=C/C=C/C=C/C=C/C=C/[C@H](C)[C@@H](O)[C@H](C)[C@H](C)OC(=O)C[C@H](O)C[C@H](O)[C@@H](O)CC[C@H](O)C[C@H](O)C[C@](O)(C[C@@H]1O)O2", "cells": "HFF", "value": "1 µg/mL"}
{"structure": "O=C(O)CP(=O)(O)O", "cells": "MEF", "strain": "E-377", "value": "4.6 µg/mL"}

5 of the rows above, restated:

{"structure": "Cn1cc(C(=O)NCc2ccc(Cl)cc2)c(=O)c2cc(CN3CCOCC3)ccc21", "cells": "HFF", "strain": "PAA/R acyclovir-resistant", "value": "0.6 µM"}
{"structure": "Nc1nc(=S)n([C@@H]2O[C@H](CO)[C@@H](O)[C@@H]2O)cc1Cl", "cells": "MRC-5", "strain": "TK-", "value": ">341 µM"}
{"structure": "Nc1nc2c(ncn2CCC(CO)CO)c(=O)[nH]1", "cells": "3T6", "strain": "511", "value": "0.08 µg/mL"}
{"structure": "C/C=C/c1cn([C@H]2C[C@H](O)[C@@H](CO)O2)c(=O)[nH]c1=O", "cells": "HELA BU", "strain": "KOS", "value": "<10 µM"}
{"structure": "Nc1nc2c(ncn2C[C@]2(CO)C[C@H]2CO)c(=O)[nH]1", "strain": "KOS", "value": "0.023 µg/mL"}

Conditions beyond the fields shown may differ between rows. Two numbers with a dash give a range or band.